{"source": "patent US7402610B2", "about": "“Carbonyl compound containing long-chain branched alkyl group” (Idemitsu Kosan Co., Ltd., priority 2004, dated 2008)"}
{"tested_on": "activated sludge", "assay": "Evaluation of biodegradability, JIS K6950, BOD tester", "conditions": "sample concentration 100 ppm, activated sludge 30 ppm, 25° C., 28 days", "units": {"Biodegradation (%)": "%"}}
{"compound": "CCCCCCCCCCC(CCCCCCCC)COC(=O)CC(CCCCCCCC)CCCCCCCCCC", "note": "(centres unmarked) [Example 5, 2-octyldodecyl 3-octyl-tridecanoate]", "Biodegradation (%)": 50.1}
{"compound": "CCCCCCCCCCC(CCCCCCCC)CC(=O)OC", "note": "(centres unmarked) [Example 1, methyl 3-octyl-tridecanoate]", "Biodegradation (%)": 52.3}
{"compound": "CCCCCCCCCCC(CCCCCCCC)CC(=O)O", "note": "(centres unmarked) [Example 2, 3-octyl-tridecanoic acid]", "Biodegradation (%)": 62.7}
{"compound": "2-octyldodecyl isostearate [Comparative Example 3, reference compound]", "Biodegradation (%)": 39.5}
{"compound": "CCCCC(CC)C(=O)OC", "note": "(centres unmarked) [Comparative Example 1, methyl 2-ethylhexanoate, reference compound]", "Biodegradation (%)": 25.7}
